Data source: PubChem BioAssay AID504761 (Drosophila RNAi Screening Center, 2011)
Aim: 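Insect host genes that dengue virus relies on to spread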 (primary screen). Cell system: D.Mel-2 cells from Drosophila. Reagent: long dsRNA against Drosophila genes. Treatment: infection with dengue virus type 2; dose and infection time not stated. Read-out: 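Per well on two replicate plates, imaging gave the percent of cells positive for viral envelope protein, ranked by infection, and a nuclear count of cells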. Reading the numbers: infection score: higher = more virus-infected cells; cell count: higher = more cells in the well. Hit rule: 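Low infection ranks in the two replicates (chance level up to 0.065) followed by a retest with a 1.5-fold or larger significant decrease, p below 0.05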. Calls: active = confirmed: knock-down lowers infection; inactive = not picked or not confirmed.
The screen tested about 22,000 reagents; shown is a random part of those with a known target gene and a result. Over the whole deposit, 116 (0.52%) are marked active. 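Calls depend on retest data that are not deposited; infection was ranked per plate without normalising between plates; the unit of the infection score is not given.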 Raw values are not corrected between plates. Entries without a mark were called inactive. Reagents against one gene are numbered here. Names joined by + are all predicted targets of the reagent. Further read-outs or replicates are left out here. Reagent sequences are not shown. The record does not give: the amount of reagent, the time to read-out.

mahj | infection score, replicate 1 = 13.9; cell count, replicate 1 = 5552
CG9691 | infection score, replicate 1 = 5.27; cell count, replicate 1 = 6380
CG12522 #1 | infection score, replicate 1 = 0.52; cell count, replicate 1 = 6295
CG12522 #2 | infection score, replicate 1 = 2.39; cell count, replicate 1 = 6355
CG9173 | infection score, replicate 1 = 2.98; cell count, replicate 1 = 6578
Drep1 | infection score, replicate 1 = 7.98; cell count, replicate 1 = 6701
Def | infection score, replicate 1 = 28.9; cell count, replicate 1 = 5280
Scgbeta | infection score, replicate 1 = 27.5; cell count, replicate 1 = 5014
Naa20A | infection score, replicate 1 = 13.8; cell count, replicate 1 = 6391
kel | infection score, replicate 1 = 5.17; cell count, replicate 1 = 1160
Rim #1 | infection score, replicate 1 = 1.72; cell count, replicate 1 = 6159
Rim #2 | infection score, replicate 1 = 3.03; cell count, replicate 1 = 725
Rim #3 | infection score, replicate 1 = 1.49; cell count, replicate 1 = 6665
Rim #4 | infection score, replicate 1 = 1.87; cell count, replicate 1 = 6460
CG42353 + CG42354 #1 | infection score, replicate 1 = 2.31; cell count, replicate 1 = 6665
CG42353 + CG42354 #2 | infection score, replicate 1 = 11.5; cell count, replicate 1 = 1557
CG12609 | infection score, replicate 1 = 6.47; cell count, replicate 1 = 4651
CG6664 #1 | infection score, replicate 1 = 4.27; cell count, replicate 1 = 6393
CG6664 #2 | infection score, replicate 1 = 2.8; cell count, replicate 1 = 6290

Continued; the last 4 above are carried over.
CG42353 + CG42354 #2 | infection score, replicate 1 = 11.5; cell count, replicate 1 = 1557
CG12609 | infection score, replicate 1 = 6.47; cell count, replicate 1 = 4651
CG6664 #1 | infection score, replicate 1 = 4.27; cell count, replicate 1 = 6393
CG6664 #2 | infection score, replicate 1 = 2.8; cell count, replicate 1 = 6290
CecA1 | infection score, replicate 1 = 2.31; cell count, replicate 1 = 6496
lectin-21Ca | infection score, replicate 1 = 3.58; cell count, replicate 1 = 6422
ps #1 | infection score, replicate 1 = 1.26; cell count, replicate 1 = 7052
ps #2 | infection score, replicate 1 = 0.79; cell count, replicate 1 = 4826
ps #3 | infection score, replicate 1 = 1.26; cell count, replicate 1 = 6028
ps #4 | cell count, replicate 1 = 319
ps #5 | cell count, replicate 1 = 341
Vajk4 #1 | infection score, replicate 1 = 2.68; cell count, replicate 1 = 6688
Vajk4 #2 | infection score, replicate 1 = 8.75; cell count, replicate 1 = 5439
Vajk4 #3 | infection score, replicate 1 = 3.12; cell count, replicate 1 = 6083
